Mtb cholesterol medium: 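Growth of Mycobacterium tuberculosis over 4 days (cholesterol / DPPC medium with tyloxapol); the read-out is not stated. Compounds at 500 µM. Higher reads as more growth inhibition (inferred: compounds with an IC50 in retests scored well above the rest). Size under these conditions: about 18,000 compounds, about 900 of them at 50% or above in at least one test.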
Mtb glucose medium: 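Growth of Mycobacterium tuberculosis over 3 days (7H9 medium with glucose and tyloxapol); the read-out is not stated. Compounds at 500 µM. The record gives no direction; compounds that gave an IC50 in retests scored well above the rest, so higher reads as more growth inhibition. About 18,000 compounds were tested under these conditions; 7.9% (about 1,400) showed 50% or more at least once.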

The filed quantity is “Percent Effect” (%).
How 0% and 100% were set is not recorded. Most values in the screen are low, and negative values occur.
Many other results are left out here, so strong results are more common than in the screen.
A dash means the value is not listed here; it may have been measured.

Compound,Mtb cholesterol medium,Mtb glucose medium
COC(=O)Cn1ccc(=O)c2cc(Cl)ccc21,-,-12.75%
CCC1=NOC(C(=O)N2CCC(c3nnc[nH]3)CC2)C1 (configuration not stated),-,-1.732%
Cc1csc(C(C)CNC(=O)c2cc(CO)ccn2)n1 (configuration not stated),-,37.81%
Cc1nnc(CN2CCCC(C(=O)NCC3CC3)C2)o1 (configuration not stated),-,2.142%
CC(C)c1cccc(NC(=O)CN2CCN(C)CC2)c1,27.04%,46.1%
CN(CCCOc1ccc(S(C)(=O)=O)cc1)CC(N)=O,13.53%,-
CC(C#N)CN(C)S(=O)(=O)N1CCCN(CCO)CC1 (configuration not stated),-,-2.506%
N#Cc1ccsc1NC(=O)CN1CCn2ccnc2C1,-,-1.103%
NC1CCN(c2ccccc2OC(F)F)C1 (configuration not stated),38.68%,75.88%
Cc1ncn(CC(O)c2cccc(F)c2)c(=O)c1C (configuration not stated),-,39.31%
CC(C)OCc1nnc(C(C)N)s1 (configuration not stated),-,6.634%
CCc1cc(C(=O)N[C@H]2CC[C@@H](N)C2)cc(=O)[nH]1,-21.81%,-
CCn1cc(C(=O)Nc2cc(C)on2)cn1,-,20.65%
COc1ccnc(N2CCCNCC2)n1,59.99%,71.2%
NC(=O)c1csc(C(=O)Nc2cnn(CC(F)F)c2)c1,-,22.8%
Cn1cc(CNC(=O)c2c(N)cnn2C)cn1,-,3.923%
O=C(Cc1ccc(O)c(Cl)c1)N[C@@H]1CS(=O)(=O)C[C@H]1O,-,5.555%
CCCOc1cc(CNC(=O)c2nccn2C)ccn1,63.92%,60.31%
O=C(CC1Sc2ccc(Cl)cc2NC1=O)OCCO (configuration not stated),108.5%,99.24%
CC1CCCN(CCNS(=O)(=O)CCCS(C)(=O)=O)C1 (configuration not stated),-,15.45%
Cc1nc2c(c(NCc3ccc(N)nc3)n1)CCCC2,-,4.687%
NC1CCCN(S(=O)(=O)c2ccc(Br)cc2)C1 (configuration not stated),-,42.12%
CN1CCCN(S(=O)(=O)c2ccccc2F)CC1,11.98%,-
Cc1c[nH]c(C(=O)N2CCCC[C@H](N(C)C)C2)n1,-,12.47%
OC(CNCc1csnn1)Cc1ccc(F)cc1F (configuration not stated),-,16.18%
CCS(=O)(=O)CCNC(=O)c1cncnc1C,-,2.887%
c1nc2c(c(NCCC3CCOC3)n1)CCNCC2 (configuration not stated),-,7.25%
COc1ccccc1CNc1ccc(C#N)cn1,65.99%,49.78%
Cc1cncc(C(=O)N2CCCC2C(C)(C)O)c1 (configuration not stated),-,-17.82%
CC(C)(N)CN1CCN(c2cccc(Cl)c2)CC1,91.3%,87.79%
CCNC(=O)CCN(C)Cc1nc2cccc(C)c2[nH]1,-,10.28%
Cc1cc(F)cc(C(=O)N[C@H](CO)C(C)C)c1,-,15.36%
CC1CCCN(CC(=O)NC2(C#N)CCCC2)C1 (configuration not stated),-,-6.481%
c1cncc(N2CCCCC2)c1,-,-0.7206%
NCC(O)c1ccc(Cl)cc1Cl (configuration not stated),39.93%,59.77%
OCC1(CO)COC1,-2.287%,-
C=C(C)CN1CCN(C(=O)COC)CC1,-3.52%,-
CNC(=O)C1CCCN1Cc1cccc(N(C)C)c1 (configuration not stated),-,16.18%
O=C(c1ccc[nH]1)N1CCC(Nc2cccnc2)CC1,-1.061%,-
CCN(Cc1ccc(OC)nc1)[C@H]1COC[C@@H]1O,-,-15.51%
NC(c1ccccc1)c1ccco1 (configuration not stated),-,20.58%
CS(=O)(=O)CCN1CCN(c2ccc(O)cc2)CC1,-,12.44%

Once more, the final 5:

Compound	Mtb cholesterol medium	Mtb glucose medium
CNC(=O)C1CCCN1Cc1cccc(N(C)C)c1 (configuration not stated)	-	16.18%
O=C(c1ccc[nH]1)N1CCC(Nc2cccnc2)CC1	-1.061%	-
CCN(Cc1ccc(OC)nc1)[C@H]1COC[C@@H]1O	-	-15.51%
NC(c1ccccc1)c1ccco1 (configuration not stated)	-	20.58%
CS(=O)(=O)CCN1CCN(c2ccc(O)cc2)CC1	-	12.44%

Data taken from ChEMBL document CHEMBL3988442, “University of Dundee, Small-Polar-MMV Screening Library” (2021).